The conditions of the series: lyophilized, under N2 at 25° C., 37° C., or 57° C. for 58 days.

Regarding “Biotin-PEG5-IWCGSGKLICTTA-Pra-(TZ-Az4-eihny-CONH2)-ICTTA-CONH2 [(iii)]”, the “Degradation after storage (HPLC traces)” value is given as “little to no degeneration”.

Source of the values: patent US11365220B2, “Methods of making anti-GP41 antibody-specific capture agents” (California Institute of Technology, priority 2013, dated 2022).
